From paper PMC7865074, “Role of PDZ-binding motif from West Nile virus NS5 protein on viral replication” (Scientific Reports, 2021)
Ends that are not written are not given here.

Target: T1, biotinylated WNV NS5 PBM peptide (West Nile virus, also: biotinyl group, end not given here)
T1 construct: bait of the holdup assay; also called 13-mer peptide; source: synthetic peptide (solid phase, Fmoc; Proteogenix)
T1 peptide: RYEDTTLVEDTVL
Experiment: holdup assay (automated high-throughput chromatography); biotinylated NS5 PBM peptide as bait against 259 human PDZ domains expressed in E. coli; read-out binding intensity (BI), mean of replicates; BI threshold 0.2 for a significant interaction

B1: Serine protease HTRA1, PDZ domain (holdup construct) (domain or fragment)
chain: not shown
notes: source: E. coli, PDZome V.2 library, high-throughput expression
  BI (holdup binding intensity): 0.3
